Compound potency records, mixed from different reports. Data source: NIAID ChemDB in PubChem.

Common to all: growth or infection tests; organism: Candida albicans; endpoint: MIC

An empty or dashed field is not shown.

SMILES	strain	method	value
Cc1c(S(=O)(=O)c2ccccc2)[n+](=O)c2ccccc2n1[O-]	Clinical isolate 19	-	7.8 µg/mL
CC(C)(C)OC(=O)N1CCCC1c1nc(C(=O)NN)cs1	7 isolates	-	>407 µM
CCc1c(O)c(=O)ccn1CCC1=NCCS1	-	-	100 µg/mL
CN=C(N)SCCN(CCSC(N)=NC)CCN(CCSC(N)=NC)CCSC(N)=NC	ATCC 18804	-	>1000 µg/mL
CC(C)CC(NC(=O)OC(C)(C)C)c1nc(C(=O)NN)cs1	7 isolates	-	>3000 µM
CCCCCOc1ccc(-c2ccc(-c3ccc(C(=O)N[C@H]4CCCNC(=O)C5C[C@H](NC(=O)NC)CN5C(=O)C(C(C)O)NC(=O)C(CCc5ccc(O)cc5)NC(=O)C5C[C@@H](O)CN5C(=O)C(C(C)O)NC4=O)cc3)cc2)cc1	ATCC 62376	-	0.2 µg/mL
N=C(N)SCCN(CCSC(=N)N)CCN(CCSC(=N)N)CCSC(=N)N	ATCC 18804	-	>1000 µg/mL
CCCCCOc1ccc(-c2ccc(-c3ccc(C(=O)N[C@H]4CCCNC(=O)[C@@H]5C[C@H](NC)CN5C(=O)[C@H]([C@@H](C)O)NC(=O)[C@H](CCc5ccc(O)cc5)NC(=O)[C@@H]5C[C@@H](O)CN5C(=O)[C@H]([C@@H](C)O)NC4=O)cc3)cc2)cc1	ATCC 10231	-	0.2 µg/mL
Cc1cc(=O)c(OCc2ccccc2)cn1CCC1=NCCS1	-	-	100 µg/mL
NC(=S)c1cc(N2CCCCC2)ccn1	44859	-	500 µM
C[C@H]1[C@H](O)[C@@H](C)/C=C/C=C/C=C/C=C/C=C/C=C/C=C/[C@H](O[C@@H]2O[C@H](C)[C@@H](O)[C@H](N)[C@@H]2O)C[C@@H]2O[C@](O)(C[C@@H](O)C[C@@H](O)CC[C@H](O)[C@@H](O)C[C@@H](O)CC(=O)O[C@H]1C)C[C@H](O)[C@H]2C(=O)O	ATCC 18804	-	0.25 µg/mL
NC(=S)CSc1ccnc(C(N)=S)c1	44859	-	500 µM
CC(C)(C)OC(=O)N[C@@H](Cc1nccs1)C(=O)N(OCc1ccccc1)[C@@H](Cc1ccc(O)cc1)C(=O)N[C@@H](Cc1ccccc1)C(=O)OCc1ccccc1	7 isolates	-	>1000 µM
Cc1cc(=O)c(OCc2ccccc2)cn1CC1=NCCS1	-	-	100 µg/mL
NC(=S)CSc1cc(C(N)=S)ccn1	44859	-	1000 µM
CC(=O)N1CCN(c2ccc(OC[C@H]3CO[C@](Cn4ccnc4)(c4ccc(Cl)cc4Cl)O3)cc2)CC1	66 strains	-	34.5 µg/mL
CCCCCOc1ccc(-c2ccc(-c3ccc(C(=O)N[C@H]4CCCNC(=O)[C@@H]5C[C@H](NC(C)=O)CN5C(=O)[C@H]([C@@H](C)O)NC(=O)[C@H](CCc5ccc(O)cc5)NC(=O)[C@@H]5C[C@@H](O)CN5C(=O)[C@H]([C@@H](C)O)NC4=O)cc3)cc2)cc1	ATCC 62376	-	0.2 µg/mL
CCc1c(O)c(=O)ccn1CC1=NCCS1	-	-	100 µg/mL
CCOc1cc2c(cc1F)n([O-])c(C)c(S(=O)(=O)c1ccccc1)[n+]2=O	Clinical isolate 11	-	15.6 µg/mL
CC(C)CC(NC(=O)OC(C)(C)C)c1nc(C(=O)O)co1	7 isolates	-	428 µM
CO[C@H]1[C@@H](OC(=O)OCc2ccccc2)[C@H](O)[C@H](OCC23C4C=C(C(C)C)C2(C(=O)O)C(C=O)(C4)[C@@H]2CC[C@@H](C)[C@H]23)O[C@@H]1C	2402	-	8 µg/mL
CC(O)C1NC(=O)C(CCc2ccc(O)cc2)NC(=O)C2C[C@@H](O)CN2C(=O)C(C(C)O)NC(=O)[C@@H](NC(=O)c2ccccc2)CCCNC(=O)C2C[C@H](N)CN2C1=O	ATCC 10231	-	>100 µg/mL
Cc1c(O)c(=O)ccn1CC1=NCCS1	-	-	75 µg/mL
CNC(=O)c1csc(C(NC(=O)OC(C)(C)C)C(C)C)n1	7 isolates	-	>409 µM
Cc1c(Sc2ccccc2)[n+](=O)c2cc(Cl)ccc2n1[O-]	Clinical isolate 15	-	15.6 µg/mL
CN(C)C(=S)SCC(O)(Cn1cncn1)c1ccc(F)cc1F	Y0109	broth dilution	≤0.0125 µg/mL
CCOC(=O)[C@H](Cc1nccs1)NC(=O)CNC(=O)CN	7 isolates	-	>1000 µM
C(=C\c1ccccc1)/CN1CCN(C(c2ccccc2)c2ccccc2)CC1	66 strains	-	413 µg/mL
Cc1c(Cl)[n+](=O)c2cc(Cl)ccc2n1[O-]	Clinical isolate 9	-	15.6 µg/mL
CC(C)(C)OC(=O)N1CCCC1c1nc(C(=O)O)cs1	7 isolates	-	443 µM
CCc1c(OCc2ccccc2)c(=O)ccn1CC1=NCCS1	-	-	75 µg/mL
CCCCCOc1ccc(-c2ccc(-c3ccc(C(=O)N[C@H]4CCCNC(=O)C5CNCN5C(=O)C(C(C)O)NC(=O)C(CCc5ccc(O)cc5)NC(=O)C5C[C@@H](O)CN5C(=O)C(C(C)O)NC4=O)cc3)cc2)cc1	ATCC 10231	-	1.56 µg/mL

Rows are shuffled and stem from different studies.